From patent US10905739B2, “Peptidomimetic macrocycles and formulations thereof” (AILERON THERAPEUTICS, INC., priority 2014, dated 2021)

Test system: Influenza A Virus H1N1 California/07/2009
Conditions: for EC50: Virus California/07/2009

Row | Structure (SMILES) | increase in antiviral activity compared to SP-786 | EC50
1 | CCCC[C@H](NC(C)=O)C(=O)N[C@@H](CC(=O)O)C(=O)N[C@H](C(=O)N[C@@H](CC(N)=O)C(=O)N[C@@]1(C)CCCC=CCCC[C@@](C)(C(=O)N[C@@H](CC(C)C)C(=O)N[C@@H](C)C(=O)N[C@H](C(=O)N[C@@H](CCC(N)=O)C(=O)N[C@@H](C)C(=O)N[C@@H](C)C(=O)N[C@@H](C)C(=O)N[C@@H](C)C(N)=O)C(C)C)NC(=O)[C@H](CC(C)C)NC(=O)[C@H](CC(C)C)NC(=O)[C@H]([C@@H](C)O)NC1=O)C(C)C [SP794] | five-fold increase | 6.1 µM
2 | CCCC[C@H](NC(C)=O)C(=O)N[C@@H](CC(=O)O)C(=O)N[C@H](C(=O)N[C@@H](CC(N)=O)C(=O)N[C@@]1(C)CCCC=CCCC[C@@](C)(C(=O)N[C@@H](CC(C)C)C(=O)N[C@@H](C)C(=O)N[C@H](C(=O)N[C@@H](CCC(N)=O)C(=O)N[C@@H](C)C(=O)N[C@@H](CCC(N)=O)C(=O)N[C@@H](C)C(=O)N[C@@H](C)C(N)=O)C(C)C)NC(=O)[C@H](CC(C)C)NC(=O)[C@H](CC(C)C)NC(=O)[C@H]([C@@H](C)O)NC1=O)C(C)C [SP791] | five-fold increase | 4.1 µM
